Pooled drug test results. Numbers come from NIAID ChemDB, via PubChem.

Shared fields: tests in culture; agent: Respiratory syncytial virus

Lines come from different laboratories, so protocols vary.

compound,tested at,endpoint,method,cell line,strain or isolate,value
Cc1cccc(Cn2c(NC3CCN(CCN)CC3)nc3ccccc32)n1,-,EC50,MTT,HELA/M,-,0.158 µM
CN(C)CCCn1c(Cn2nc3ccccc3n2)nc2ccccc21,4 µg/mL,inhibition,-,HEP-2,LONG,89%
c1ccc2c(c1)CSSC2,-,EC50,cytopathic effect,HeLa,clone 16 (RD3-0028-resistant),>244.4 µM
Nc1cc2[nH]cnc2c(=O)[nH]1,-,EC50,cytopathic effect,HeLa,58-17,2 µg/mL
CC(C)N(CCn1c(Cn2nnc3ccccc32)nc2cc([N+](=O)[O-])ccc21)C(C)C,4 µg/mL,inhibition,-,HEP-2,LONG,55%
Nc1ncnc2c1ccn2[C@@H]1O[C@H](CO)[C@@H](O)[C@H]1O,-,EC50,cytopathic effect,HeLa,S-2,1 µg/mL
C#Cc1c(C(N)=O)ncn1[C@@H]1O[C@H](CO)[C@@H](O)[C@H]1O,-,EC50,plaque count,HeLa,TYPE A/LONG,0.35 µg/mL
NC(=O)c1ncn([C@@H]2O[C@H](CO)[C@@H](O)[C@H]2O)n1,4 µg/mL,inhibition,plaque count,HEP-2,20,54%
Cc1ccc(O)c(Cn2c(NC3CCN(CCN)CC3)nc3c(C)cccc32)n1,-,EC50,cell fusion,HEP-2,A2,0.0009 µM
Nc1ccn([C@@H]2C[C@H](CO)[C@@H](O)[C@H]2O)c(=O)n1,-,EC50,cytopathic effect,HeLa,LONG,>50 µg/mL
NC(=O)c1ncn([C@@H]2O[C@H](CO)[C@@H](O)[C@H]2O)n1,-,EC50,plaque count,HEP-2,FM-58-8,24.1 µM
Cc1ccc(O)c(Cn2c(NC3CCN(CCN)CC3)nc3ccccc32)n1,-,EC50,MTT,HELA/M,-,0.0004 µM
C#Cc1c(C(N)=O)ncn1[C@@H]1O[C@H](CO)[C@@H](O)[C@H]1O,-,EC50,plaque count,HeLa,TYPE B/SM-6148,0.06 µg/mL
NCCN1CCC(Nc2nc3ccccc3n2Cc2ncccc2O)CC1,-,EC50,MTT,HELA/M,-,0.0025 µM
c1ccc2c(c1)nnn2Cc1nc2ccccc2n1CC1CCCN2CCCCC12,4 µg/mL,inhibition,-,HEP-2,LONG,100%
N=C(N)c1ccc2[nH]c(C(=N)N)cc2c1,-,EC50,cytopathic effect,HeLa,LONG,>25 µg/mL
CS(=O)(=O)OCCn1c(Cn2nnc3ccccc32)nc2ccccc21,4 µg/mL,inhibition,-,HEP-2,LONG,0%
NC(=O)c1[nH]nc([C@@H]2O[C@H](CO)[C@@H](O)[C@H]2O)c1O,-,EC50,cytopathic effect,HeLa,S-8,0.02 µg/mL

ECn is the concentration giving n% inhibition of infection, replication or growth. Percent inhibition refers to the dose given; in toxicity tests it is the harm to the cells. Blank or dashed fields: not listed here.